Measured values taken from the supplement of paper PMC9931576.
Human monoclonal antibodies against the spike receptor-binding domain (heavy:light variable regions). IC50 against pseudoviruses bearing the spike of naturally observed variants; lower = stronger; >10 µg/ml means not reached at the top dose. No active / inactive call. The stated detection limit is 0.0005 µg/ml; values near or below 0.001 µg/ml lie at the floor of the assay.

B1: BD55-5557 (protein)
chain 1: QVQLVESGGGVVQPGRSLRLSCAASGFTFRSYAMHWVRQAPGKGLEWVAVIWHDGSNKYYADSVKGRFTISRDNSENTLYLQMNSLRAEDTAVYYCARATHSYCGGECYFPDGYWGQGTLVTVSS
chain 2: DILMTQSPSTLSASVGDRVTITCRASQSISSWLAWYQQKPGKAPKLLIYQASSLESGVPSRFSGSGSGTEFTLTISSLQPDDFATYYCQQYNSYWTFGQGTKVEIK
B2: BD55-5565 (protein)
chain 1: QVHLVQSGSDLKKPGASVKVSCKASGYTFTNYAINWVRQAPGQGLKWMGWINPDTGIPTYAQGFTGRFVFSFDTSVNTAYLQIRSLKTEDTAVYYCARDANQWPRNQWFAPWGQGTLVTVSS
chain 2: DIVMTQSPDSLAVSLGERATINCKSSHSLLSSPSNKNDLAWYQQKPGQPPKLLIYWASTRESGVPDRFSGSGAGTDFTLTISSLQPEDVAVYYCQQYYSTPLTFGGGTKVEIK
B3: BD55-5577 (protein)
chain 1: EVQLVESGGGLVQPGGSLRLSCAASGFTFSKYWMSWVRQAPGRGLEWVANIKEDGSEKNYVDSVKGRFTISRDNAKNSLYLHMNSLRVEDTAVYYCARAPVFYEILTPEYFDTWGQGTLVTVSS
chain 2: SYELTQPPSVSVSPGQTARITCSGDALPTQYTYWYQQKPGQAPMLVIYKDSERPSGIPERFSGSNSGKTVTLTISGVQAEDEADYYCQSADSRSWVFGGGTKLTVL
B4: BD55-5545 (protein)
chain 1: QVQLQQWGAGLLKPSETLSLTCAVSGGSLSGYYWGWIRQSPGKGLQWIGEINHGGTTSYNPSLKSRVTISLDTSKTQFSLTVSSVTAADTAVYYCARIAPRKDRVESGWYWGFDYWGQGTLVTVSS
chain 2: DIEMTQSPDSLAVSLGERATINCKPSQSVSYSSDIKNYLAWYQQKPGQPPKLLIYWASTRESGVPDRFSGSGSGTDFSLTISSLQAEDVAVYYCQQYYSPPITFGQGTRLEIK
B5: BD55-5483 (protein)
chain 1: QVQLVQSGAEVKKPGSSVKVSCKASGDTFRSFALSWVRQAPGQGLEWMGVINPVFGAAHYAQKFQGRVTFIPDERTSTAYMVLSSLRSADTAVYYCARLFPSGNPDRPEDGVDVWGQGTMVTVSS
chain 2: DIQMTQSPSSLSASVGDRVTISCQASQGISKYLNWYQQKPGKAPKLLIYYASNLETGVPSRFSGSGFGTDFYLTISSLQPEDVATYYCQRFDDLPSYTFGQGTKLEIK
B6: BD55-5526 (protein)
chain 1: EVQLVESGGVVVQPGGSLRLSCAASGFTFNDYAMHWVRQPPGKGLEWVSLISWDGGSTYYGDSVKGRFTISRDNSKNSLYLQMKSLRAEDTALYYCAKDDDYYGSGSYGGLDVWGQGTTVTVSS
chain 2: DIQMTQSPSAMSASIGDRVTITCRASQDINYYLAWFQQKPGKVPKRLIYGASSLQSGVPSRFSGSGSGTEFTLTISSLQPEDFATYYCLQHSSYPWTFGQGTKVEIK
B7: BD55-5505 (protein)
chain 1: QVQLVESGGGVVQPGRSLRLSCATSGFTFSSYGMHWVRQAPGKGLEWVAVILSDGNKEYYADSVKGRFTISRDNSKNTMYLQMNSLRAEDTAVYYCVREEFLYYYDINGAWPHFDYWGQGTLVTVSS
chain 2: QSVLTQPPSASETPGQRVTISCSGSNSNIGPNYVYWYQQLPGTAPKLLIYNNNQRPSGVPDRFSGSKSGTSASLAISGLRSEDEADYYCAAWDDSLSGVVFGGGTKLTVL
B8: BD55-5543 (protein)
chain 1: EVQLLESGGGLVQPGGSLRLSCAASGFTFSNFAMHWVRQAPGKGLEWVSAFSSSSGSHSYYADSVKGRFTISRDNSKNTLYLQMNSLRAEDTAIYYCAKPQNREWFGELFPFDFWGPGTLVTVSS
chain 2: DIVMTQSPDSLAVSLGERATIHCKSSQSLLFTSNNKNYLAWYQHRPGQPPKLLLYWASTRESGVPDRFSGSGSGTDFTLTISSLQAEDVAVYYCQQYYSSLYTFGQGTKLEIK
B9: BD55-5542 (protein)
chain 1: QVQLVQSGAEVKKPGSSVKVSCKASGGTFTSYAISWVRQAPGQGLEWMGGIIPFFNISNYAQKFQGRVTITADKSTSTAYMELSSLRSEDTAVYYCARERGEGVPAPTVTYWFDPWGQGTLVTVSS
chain 2: DIVMTQTPDSLAVSLGERATINCKSSQSVLYSSNNKNYLSWYQQKPGQPPKVLIYWASIRESGVPDRFSGSGSGTDFTLTISSLQAEDVAVYYCQQYYSNPLTFGGGTKVEIK
B10: BD55-5530 (protein)
chain 1: QVQLVQSGSELKKPGASVRVSCKASGYTFTTYSIKWVRQAPGQGLEWMGWINTNTGTPTSAQGLTGRFVFSVDTSVSTAYLQISSLKTEDTAVYYCARVFCSGGSCYDVDLWGQGTLVTVSS
chain 2: QSVLTQPPSASGTPGQRVIISCSGSISNIGSNFVYWYQQLPGTAPKVLIYRNIHRPSGVPDRFSGSKSGTSASLAISGLRSEDEADYYCAAWDDGLSGRLFGGGTKLTVL
B11: BD55-1073 (protein)
chain 1: QVQLVQSGAEVKKPGASVKVSCKASGYTFTSDYIHWVRQAPGQGLEWVGMINPNGAGTDYAQKFQGRVTMTRDRSTNTVYMEFSSLKSDDTAVYFCASLHSNFGVMLIPNDAFDIWGQGTVLTVSS
chain 2: QSVLTQPPSVSAAPGQKVTISCSGSSSNIGNNFVSWYRQLPGTVPKLLIYDNDKRPSGIPDRFSGSKSGTSATLGITGLQTGDEADYYCATWDSSPSSPFVFGTGTKVTVL
B12: BD55-1070 (protein)
chain 1: EVQLVESGGALVQPGGSLKLSCAASGFTFTEEDMHWVRQTTGKGLEWVSGAGTSGDTYYLDSVKGRFTISREDAKNSLSLQMSSLRAEDTAIYYCVRGDSSGLYYFFDLWGHGTLVTVSS
chain 2: DIQMTQSPSSLSASVGDRVTITCRASQTITKYLNWYQVKPGKPPKLLIYAASKLQSGVPSRFSGSGSGTDFTLTIGSLQADDFATYYCQQSYSSPPWTFGPGTKVEIK

biological target: SARS-CoV-2 Omicron BA.1 spike pseudovirus; test: pseudovirus neutralization IC50; higher = weaker neutralization
Protocol: (§1)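 Single-round VSV luciferase pseudovirus mixed with antibody dilutions for 1 h and put on Huh-7 cells for about a day; IC50 from the dose curve.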

Binder	pseudovirus neutralization IC50 [µg/mL]
B1	6.04
B2	> 10
B3	> 10
B4	8.16
B5	0.00647
B6	> 10
B7	> 10
B8	> 10
B9	> 10
B10	> 10
B11	0.81
B12	> 10

biological target: SARS-CoV-2 Omicron BA.2 spike pseudovirus; test: as above
Protocol: as §1

Binder	pseudovirus neutralization IC50 [µg/mL]
B1	8.53
B2	> 10
B3	> 10
B4	8.32
B5	0.0133
B6	> 10
B7	> 10
B8	> 10
B9	> 10
B10	> 10
B11	0.933
B12	> 10

biological target: SARS-CoV-2 Omicron BA.2.75 spike pseudovirus; test: as above
Protocol: as §1

Binder	pseudovirus neutralization IC50 [µg/mL]
B1	5.47
B2	> 10
B3	> 10
B4	8.01
B5	0.00183
B6	> 10
B7	> 10
B8	> 10
B9	> 10
B10	> 10
B11	0.75
B12	> 10

biological target: SARS-CoV-2 Omicron BA.5 spike pseudovirus; test: as above
Protocol: as §1

Binder	pseudovirus neutralization IC50 [µg/mL]
B1	6.18
B2	> 10
B3	> 10
B4	6.86
B5	0.00394
B6	> 10
B7	> 10
B8	> 10
B9	> 10
B10	> 10
B11	> 10
B12	> 10

biological target: SARS-CoV-2 Omicron BQ.1.1 spike pseudovirus; test: as above
Protocol: as §1

Binder	pseudovirus neutralization IC50 [µg/mL]
B1	4.41
B2	> 10
B3	> 10
B4	> 10
B5	0.00284
B6	> 10
B7	> 10
B8	> 10
B9	> 10
B10	> 10
B11	> 10
B12	> 10

biological target: SARS-CoV-2 Omicron XBB spike pseudovirus; test: as above
Protocol: as §1

Binder	pseudovirus neutralization IC50 [µg/mL]
B1	> 10
B2	> 10
B3	> 10
B4	> 10
B5	0.00436
B6	> 10
B7	> 10
B8	> 10
B9	> 10
B10	> 10
B11	> 10
B12	> 10

biological target: SARS-CoV-2 early D614G spike pseudovirus; test: as above
Protocol: as §1

Binder	pseudovirus neutralization IC50 [µg/mL]
B1	1.58
B2	0.108
B3	> 10
B4	1.21
B5	0.0138
B6	> 10
B7	> 10
B8	0.0852
B9	0.517
B10	0.00172
B11	0.0157
B12	> 10
